A mixed list of measured activities; the numbers were collected in NIAID ChemDB.

Shared fields: cytotoxicity tests; cells: MT-4; measure: CC50

Blank or dashed fields: not listed here. Conditions beyond the fields shown may differ between rows. CCn is the concentration with n% toxicity to the cells.

{"structure": "C=CCOc1cccc(Cc2nc(SC(C)C)nc(OC(C)C)c2CC)c1", "read by": "MTT", "result": ">100 µM"}
{"structure": "Fc1ccc(Nc2nnnn2-c2cccc(C(F)(F)F)c2)cc1Cl", "read by": "MTT / absorbance", "result": "41 µM"}
{"structure": "C=CCOc1cccc(Cc2c(CC)c(=O)n(COCC)c(=O)n2COCC)c1", "read by": "MTT", "result": "41 µM"}
{"structure": "FC(F)(F)c1cccc(-n2nnnc2Nc2cccc(Cl)c2)c1", "read by": "MTT / absorbance", "result": "29 µM"}
{"structure": "COc1cccc(Cn2cccc2/C=C/C(=O)CC(=O)C(=O)O)c1", "read by": "resazurin", "result": ">50 µM"}
{"structure": "C=CCOc1cccc(Cc2nc(SCC(C)C)nc(OCC(C)C)c2CC)c1", "read by": "MTT", "result": ">100 µM"}
{"structure": "O=C1CSC(=Nc2cccc(C(F)(F)F)c2)N1c1cccc(F)c1", "read by": "MTT / absorbance", "result": ">100 µM"}
{"structure": "CC(C)C(N)C(=O)O[C@@H](C[C@@H](Cc1ccccc1)C(=O)N[C@H]1c2ccccc2C[C@H]1O)CN1CCN(Cc2cccnc2)C[C@H]1C(=O)NC(C)(C)C", "read by": "MTT", "result": ">100 µM"}
{"structure": "CCNC(=O)[C@@H](NC(=O)Cc1ccccc1)[C@@H]1N[C@@H](C(=O)NC[C@H](O)CN2C[C@H]3CCCC[C@H]3C[C@H]2C(=O)NC(C)(C)C)C(C)(C)S1", "result": ">100 µM"}
{"structure": "FC(F)(F)c1cccc(-n2nnnc2Nc2cccc(Br)c2)c1", "read by": "MTT / absorbance", "result": "20 µM"}
{"structure": "CCOC(=O)C(=O)CC(=O)/C=C/c1cccn1Cc1ccc(F)cc1", "read by": "resazurin", "result": ">50 µM"}
{"structure": "O=C(NCc1ccc(F)cc1)c1nc2n(c(=O)c1O)CCN(Cc1ccccc1)C2", "read by": "microscopy", "result": ">1 µM"}
{"structure": "C=CCOc1cccc(Cc2nc(SC)[nH]c(=O)c2CC)c1", "read by": "MTT", "result": "80 µM"}
{"structure": "COC(=O)C(C)(C)NP(=O)(OC[C@H]1C=C[C@@H](n2cnc3c(N)ncnc32)C1)Oc1ccccc1", "read by": "MTS", "result": "20 µM"}
{"structure": "N#Cc1ccc(Nc2nc(N)nc(Cc3c(F)ccc(F)c3F)n2)cc1", "read by": "MTT", "result": ">0.66 µM"}
{"structure": "O=C(/C=C/c1cc(-c2ccccc2)cn1Cc1ccc(F)cc1)CC(=O)C(=O)O", "read by": "resazurin", "result": ">50 µM"}
{"structure": "CC(C)(C)NC(=O)[C@@H]1CN(Cc2cccnc2)CCN1C[C@@H](O)C[C@@H](Cc1ccccc1)C(=O)N[C@H]1c2ccccc2C[C@H]1OC(=O)CCCCOc1ccc(C[C@H](NC(=O)OC(C)(C)C)C(=O)O)cc1", "read by": "MTT", "result": ">100 µM"}
{"structure": "C=CCCc1cccc(Cc2c(CC)c(=O)[nH]c(=O)n2COCC=C)c1", "read by": "MTT", "result": "42 µM"}
{"structure": "CN1CCn2c(nc(C(=O)NCc3ccc(F)c(Cl)c3)c(O)c2=O)C(N(C)C(=O)C(=O)N(C)C)C1", "read by": "microscopy", "result": ">1 µM"}
{"structure": "CC(C)(C)NC(=O)[C@@H]1CN(Cc2cccnc2)CCN1C[C@H](C[C@@H](Cc1ccccc1)C(=O)N[C@H]1c2ccccc2C[C@H]1O)OC(=O)COc1ccc(C[C@H](N)C(=O)O)cc1", "read by": "MTT", "result": ">100 µM"}
{"structure": "CCOC(=O)C(=O)CC(=O)/C=C/c1cccn1Cc1cccc(OC)c1", "read by": "resazurin", "result": "14.1 µM"}
{"structure": "CCCCCCCC/C=C\\CCCCCCCC(=O)OCC(COC(=O)CCCCCCC/C=C\\CCCCCCCC)OC(=O)CCC(=O)O[C@@H](C[C@@H](Cc1ccccc1)C(=O)N[C@H]1c2ccccc2C[C@H]1OC(=O)CCC(=O)OC(COC(=O)CCCCCCC/C=C\\CCCCCCCC)COC(=O)CCCCCCC/C=C\\CCCCCCCC)CN1CCN(Cc2cccnc2)C[C@H]1C(=O)NC(C)(C)C", "read by": "MTT", "result": ">100 µM"}
{"structure": "CN1CCN(C(=O)CN2CCn3c(nc(C(=O)NCc4ccc(F)cc4)c(O)c3=O)C2(C)C)CC1", "read by": "microscopy", "result": ">1 µM"}
{"structure": "CC(C)(C)NC(=O)[C@@H]1CN(Cc2cccnc2)CCN1C[C@@H](O)C[C@@H](Cc1ccccc1)C(=O)N[C@H]1c2ccccc2C[C@H]1OC(=O)CCCCOc1ccc(C[C@H](N)C(=O)O)cc1", "read by": "MTT", "result": ">100 µM"}
{"structure": "O=C(O)[C@H]1O[C@@H](Oc2cc(O)c3c(=O)cc(-c4ccc(O)cc4)oc3c2)[C@H](O)[C@@H](O)[C@@H]1O", "result": "0.32 µg/mL"}
{"structure": "C=CCOc1cccc(Cc2[nH]c(=O)c(CC)c(O)c2CC)c1", "read by": "MTT", "result": "77 µM"}
{"structure": "CC(C)(C)NC(=O)[C@@H]1CN(Cc2cccnc2)CCN1C[C@H](C[C@@H](Cc1ccccc1)C(=O)N[C@H]1c2ccccc2C[C@H]1OC(=O)CCCCOc1ccc(C[C@H](N)C(=O)O)cc1)OC(=O)CCCCOc1ccc(C[C@H](N)C(=O)O)cc1", "read by": "MTT", "result": ">100 µM"}
{"structure": "CCCCCCCNC(=O)[C@@H](NC(=O)Cc1ccccc1)[C@@H]1N[C@@H](C(=O)NCC(O)CN2C[C@H]3CCCC[C@H]3C[C@H]2C(=O)NC(C)(C)C)C(C)(C)S1", "result": ">100 µM"}
{"structure": "CCOC(=O)C(=O)CC(=O)/C=C/c1cccn1Cc1ccccc1Cl", "read by": "resazurin", "result": ">50 µM"}
{"structure": "CCOCn1c(Cc2cccc(CCC=O)c2)c(CC)c(=O)[nH]c1=O", "read by": "MTT", "result": ">100 µM"}
{"structure": "Nc1ncnc2c1ccn2[C@@H]1CC[C@H](CO)C1", "read by": "MTS", "result": "255 µM"}
{"structure": "CC(C)C(N)C(=O)O[C@H](CN1C[C@H]2CCCC[C@H]2C[C@H]1C(=O)NC(C)(C)C)[C@H](Cc1ccccc1)NC(=O)[C@H](CC(N)=O)NC(=O)c1ccc2ccccc2n1", "read by": "MTT", "result": ">100 µM"}
{"structure": "CC(=O)N1CCn2c(nc(C(=O)NCc3ccc(F)cc3)c(O)c2=O)C1CN(C)C", "read by": "microscopy", "result": ">1 µM"}
{"structure": "Fc1cccc(Nc2nnnn2-c2cccc(C(F)(F)F)c2)c1", "read by": "MTT / absorbance", "result": "48 µM"}
{"structure": "CC(C)(C)NC(=O)[C@@H]1C[C@@H]2CCCC[C@@H]2CN1C[C@H](O)CNC(=O)[C@@H]1N[C@@H]([C@H](NC(=O)Cc2ccccc2)C(=O)NCc2ccccc2)SC1(C)C", "result": ">100 µM"}
{"structure": "Cc1cn([C@H]2C[C@H](N=[N+]=[N-])[C@@H](CO)O2)c(=O)[nH]c1=O", "read by": "MTT", "result": "64.1 µM"}
{"structure": "COC(=O)[C@H](C)NP(=O)(OC[C@H]1CC[C@@H](n2ccc3c(N)ncnc32)C1)Oc1ccccc1", "read by": "MTS", "result": ">80 µM"}
{"structure": "CC(C)(C)NC(=O)[C@@H]1C[C@@H]2CCCC[C@@H]2CN1C[C@@H](O)CNC(=O)[C@@H]1N[C@@H]([C@H](NC(=O)Cc2ccccc2)C(=O)NCc2ccccc2)SC1(C)C", "result": ">100 µM"}
{"structure": "Cc1coc(CN2CCn3c(nc(C(=O)NCc4ccc(F)cc4)c(O)c3=O)C2(C)C)n1", "read by": "microscopy", "result": ">1 µM"}
{"structure": "Nc1ncnc2c1ccn2[C@@H]1C=C[C@H](CO)C1", "read by": "MTS", "result": ">500 µM"}

5 of the rows above, restated:

| structure | read by | result |
|---|---|---|
| CC(C)(C)NC(=O)[C@@H]1CN(Cc2cccnc2)CCN1C[C@H](C[C@@H](Cc1ccccc1)C(=O)N[C@H]1c2ccccc2C[C@H]1OC(=O)CCCCOc1ccc(C[C@H](N)C(=O)O)cc1)OC(=O)CCCCOc1ccc(C[C@H](N)C(=O)O)cc1 | MTT | >100 µM |
| O=C(O)[C@H]1O[C@@H](Oc2cc(O)c3c(=O)cc(-c4ccc(O)cc4)oc3c2)[C@H](O)[C@@H](O)[C@@H]1O |  | 0.32 µg/mL |
| Fc1ccc(Nc2nnnn2-c2cccc(C(F)(F)F)c2)cc1Cl | MTT / absorbance | 41 µM |
| C=CCOc1cccc(Cc2nc(SCC(C)C)nc(OCC(C)C)c2CC)c1 | MTT | >100 µM |
| Fc1cccc(Nc2nnnn2-c2cccc(C(F)(F)F)c2)c1 | MTT / absorbance | 48 µM |